ChEMBL document CHEMBL1240404, “Rapamycin protects mice from staphylococcal enterotoxin B-induced toxic shock and blocks cytokine release in vitro and in vivo” (Antimicrob Agents Chemother, 2010)

Legend:
[1] = system: Mus musculus; test: Antiinflammatory activity in C3H/HeJ mouse assessed as reduction in SEB-induced increase in serum MCP-1 level at 0.7 mg/kg, in after 2 hrs; details: strain C3H/HeJ
[2] = system: Mus musculus; test: Antiinflammatory activity in C3H/HeJ mouse assessed as reduction in SEB-induced increase in lung IL-2 level at 0.7 mg/kg, in measured after 51 hrs of SEB challenge; set-up: scale not given: the % may be the effect or the level left
[3] = system: Mus musculus; test: Antiinflammatory activity in C3H/HeJ mouse assessed as reduction in SEB-induced increase in serum IL-6 level at 0.7 mg/kg, in after 2 hrs; details: strain C3H/HeJ
[4] = system: Mus musculus; test: Antiinflammatory activity in C3H/HeJ mouse assessed as reduction in SEB-induced increase in lung MCP-1 level at 0.7 mg/kg, in measured after 51 hrs of SEB challenge; set-up: scale not given: the % may be the effect or the level left
[5] = system: Mus musculus; test: Antiinflammatory activity in C3H/HeJ mouse assessed as reduction in SEB-induced increase in lung IL-6 level at 0.7 mg/kg, in measured after 51 hrs of SEB challenge; set-up: scale not given: the % may be the effect or the level left

## CO[C@H]1C[C@@H]2CC[C@@H](C)[C@@](O)(O2)C(=O)C(=O)N2CCCC[C@H]2C(=O)O[C@H]([C@H](C)C[C@@H]2CC[C@@H](O)[C@H](OC)C2)CC(=O)[C@H](C)/C=C(\C)[C@@H](O)[C@@H](OC)C(=O)[C@H](C)C[C@H](C)/C=C/C=C/C=C/1C
[1]
  inhibition (INH): 90%
[2]
  Activity: 80%
[3]
  inhibition (INH): 80%
[4]
  Activity: 56%
[5]
  Activity: 65%
